From US20250127801A1, “BRIDGED TRICYCLIC CARBAMOYLPYRIDONE COMPOUNDS AND USES THEREOF” (priority 2023, published 2025)

Legend:
HIV-1 (IIIB) = assay: Antiviral assay in MT-4 cells; type: cell-based; settings: read-out: MT4 EC50; HIV-1 (IIIB) replication in MT-4 cells, 5 days incubation, Cell Titer Glo
MT-4 cells = assay: Cytotoxicity assay in MT-4 cells; settings: read-out: MT4 CC50; uninfected MT-4 cells, 5 days incubation, Cell Titer Glo
[1] = Thermodynamic solubility assay; settings: 24-hour incubation, ambient temperature (22.3-23.8° C.), HPLC-UV 280 nm

Compound `CC1=NO[C@@]2(CC[C@H](C)N3C[C@H]2n2cc(C(=O)NCc4ccc(F)cc4F)c(=O)c(OC(=O)N4CCN(C)C[C@H]4CN(CC(=O)O)C(=O)OCOP(=O)(O)O)c2C3=O)C1` has a pEC50 (HIV-1 (IIIB)) of 8.62 and a CC50 (MT-4 cells) of 10.6 µM.
For `CC1=NO[C@@]2(CC[C@H](C)N3C[C@H]2n2cc(C(=O)NCc4ccc(F)cc4F)c(=O)c(OC(=O)N(C)Cc4ccccc4OP(=O)(O)O)c2C3=O)C1`, the pEC50 (HIV-1 (IIIB)) was 8.69, the “Thermodynamic FaSSIF Solubility @ 24 h” value [1] was 5.555 mg/mL and the CC50 (MT-4 cells) was 17.1 µM.
For `CC1=NO[C@@]2(CC[C@H](C)N3C[C@H]2n2cc(C(=O)NCc4ccc(F)cc4F)c(=O)c(OC(=O)N4CCOC[C@H]4CN(CC(=O)O)C(=O)OCOP(=O)(O)O)c2C3=O)C1`, the pEC50 (HIV-1 (IIIB)) was 8.85, the “Thermodynamic FaSSIF Solubility @ 24 h” value [1] was 4.725 mg/mL and the CC50 (MT-4 cells) was 8.34 µM.
Compound `CC1=NO[C@@]2(CC[C@H](C)N3C[C@H]2n2cc(C(=O)NCc4ccc(F)cc4F)c(=O)c(OC(=O)N4CCN(C)C[C@@H]4CN(CC(=O)O)C(=O)OCOP(=O)(O)O)c2C3=O)C1` has a pEC50 (HIV-1 (IIIB)) of 8.66 and a CC50 (MT-4 cells) of 11.1 µM.
For `CC1=NO[C@@]2(CC[C@H](C)N3C[C@H]2n2cc(C(=O)NCc4ccc(F)cc4F)c(=O)c(OC(=O)N4CCOC[C@@H]4CN(CC(=O)O)C(=O)OCOP(=O)(O)O)c2C3=O)C1`, the pEC50 (HIV-1 (IIIB)) was 9.00, the “Thermodynamic FaSSIF Solubility @ 24 h” value [1] was 4.9 mg/mL and the CC50 (MT-4 cells) was 10.5 µM.
For `CC1=NO[C@@]2(CC[C@H](C)N3C[C@H]2n2cc(C(=O)NCc4ccc(F)cc4F)c(=O)c(OC(=O)N(C)Cc4cc(C(=O)O)ccc4OP(=O)(O)O)c2C3=O)C1`, the pEC50 (HIV-1 (IIIB)) was 9.16, the “Thermodynamic FaSSIF Solubility @ 24 h” value [1] was 4.74 mg/mL and the CC50 (MT-4 cells) was 9.19 µM.
Work on `CC1=NO[C@@]2(CC[C@H](C)N3C[C@H]2n2cc(C(=O)NCc4ccc(F)cc4F)c(=O)c(OC(=O)N(C)C[C@@H]4CCCN4C(=O)OCOP(=O)(O)O)c2C3=O)C1` yielded a pEC50 (HIV-1 (IIIB)) of 9.14 and a CC50 (MT-4 cells) of 13 µM.
For `CC1=NO[C@@]2(CC[C@H](C)N3C[C@H]2n2cc(C(=O)NCc4ccc(F)cc4F)c(=O)c(OC(=O)N(C)Cc4ccc(C(=O)O)cc4OP(=O)(O)O)c2C3=O)C1`, the pEC50 (HIV-1 (IIIB)) was 9.20, the “Thermodynamic FaSSIF Solubility @ 24 h” value [1] was 5.07 mg/mL and the CC50 (MT-4 cells) was 8.48 µM.
In the case of `CC1=NO[C@@]2(CC[C@H](C)N3C[C@H]2n2cc(C(=O)NCc4ccc(F)cc4F)c(=O)c(OC(=O)N(C)Cc4ccc(OP(=O)(O)O)cc4)c2C3=O)C1`, the “Thermodynamic FaSSIF Solubility @ 24 h” value [1] was 5.01 mg/mL.
Compound `CC1=NO[C@@]2(CC[C@H](C)N3C[C@H]2n2cc(C(=O)NCc4ccc(F)cc4F)c(=O)c(OC(=O)N4CCOC[C@H]4COP(=O)(O)O)c2C3=O)C1` has a pEC50 (HIV-1 (IIIB)) of 7.63.

pEC50: −log10 of the molar value.
